Drawing on publication PMC10801580, “Isolation and Characterization of Neutralizing Monoclonal Antibodies from a Large Panel of Murine Antibodies against RBD of the SARS-CoV-2 Spike Protein” (2024), this text covers response for three substances.

“And” between values parts separate entries of the source, which are not always exact repeats. Identical values can stand only once. Like-named read-outs stand apart in the source and are kept apart here.

One experiment addresses murine 3-12B12-F4. Particulars: read off a plot.
Where [1] appears, read: 0.0061µg/ml (colour key), read off a plot.
The mark [2] stands for this setting: 0.012µg/ml (colour key), read off a plot.
The mark [3] stands for this setting: 0.037µg/ml (colour key), read off a plot.
Where [4] appears, read: 3µg/ml (colour key), read off a plot.

On to “WT RBD-6xHis (receptor-binding domain of the SARS-CoV-2 spike protein) D405N”, for which the response in the experiment with murine 3-12B12-F4 (0.0061µg/ml (colour key)) is 0.2 Abs (405 nm); with murine 3-12B12-F4 (0.012µg/ml (colour key)) it was 0.25 Abs (405 nm); in the experiment with murine 3-12B12-F4 (0.037µg/ml (colour key)) it was 0.37 Abs (405 nm); in the experiment with murine 3-12B12-F4 (0.11µg/ml (colour key)), 0.6 Abs (405 nm); with murine 3-12B12-F4 (0.33µg/ml (colour key)) it was 0.95 Abs (405 nm); with murine 3-12B12-F4 (1µg/ml (colour key)), 1.2 Abs (405 nm). Also, the response in the experiment with murine 3-12B12-F4 (3µg/ml (colour key)) was 1.3 Abs (405 nm); with murine 9-8F2-B11, 1.4 Abs (405 nm); with murine 9-8F2-B11 (setting [1]), 0.45 Abs (405 nm); in the experiment with murine 9-8F2-B11 (setting [2]), 0.77 Abs (405 nm); with murine 9-8F2-B11 (setting [3]), 1.1 Abs (405 nm); with murine 9-8F2-B11 (setting [4]) it was 1.3 Abs (405 nm). Moreover, the response with murine 9-8F2-B11 (read off a plot) was 1.3 Abs (405 nm).

With “WT RBD-6xHis (receptor-binding domain of the SARS-CoV-2 spike protein) L452R”, the response in the experiment with murine 3-12B12-F4 (0.0061µg/ml (colour key)) is 0.1 Abs (405 nm); with murine 3-12B12-F4 (0.012µg/ml (colour key)) it was 0.12 Abs (405 nm); with murine 3-12B12-F4 (0.037µg/ml (colour key)), 0.13 Abs (405 nm); with murine 3-12B12-F4 (0.11µg/ml (colour key)) it was 0.2 Abs (405 nm); with murine 3-12B12-F4 (0.33µg/ml (colour key)), 0.37 Abs (405 nm); with murine 3-12B12-F4 (1µg/ml (colour key)), 0.42 Abs (405 nm). Also, the response is 0.72 Abs (405 nm) in the experiment with murine 3-12B12-F4 (3µg/ml (colour key)); 2.4 Abs (405 nm) and 2.3 Abs (405 nm) with murine 9-8F2-B11; 0.78 Abs (405 nm) with murine 9-8F2-B11 (setting [1]); 1.3 Abs (405 nm) with murine 9-8F2-B11 (setting [2]); 1.8 Abs (405 nm) in the experiment with murine 9-8F2-B11 (setting [3]); 2.3 Abs (405 nm) with murine 9-8F2-B11 (setting [4]). The response in the experiment with murine 9-8F2-B11 (read off a plot) is 2.1 Abs (405 nm).

On to “WT RBD-6xHis (receptor-binding domain of the SARS-CoV-2 spike protein) Q493R”, for which the response with murine 3-12B12-F4 (0.0061µg/ml (colour key)) is 0.2 Abs (405 nm); with murine 3-12B12-F4 (0.012µg/ml (colour key)) it was 0.58 Abs (405 nm); with murine 3-12B12-F4 (0.037µg/ml (colour key)), 1.1 Abs (405 nm); with murine 3-12B12-F4 (0.11µg/ml (colour key)), 1.8 Abs (405 nm); in the experiment with murine 3-12B12-F4 (0.33µg/ml (colour key)) it was 2.1 Abs (405 nm); with murine 3-12B12-F4 (1µg/ml (colour key)) it was 2.1 Abs (405 nm). The response was 2.1 Abs (405 nm) in the experiment with murine 3-12B12-F4 (3µg/ml (colour key)); 2.1 Abs (405 nm) and 2 Abs (405 nm) with murine 9-8F2-B11; 0.63 Abs (405 nm) with murine 9-8F2-B11 (setting [1]); 1.2 Abs (405 nm) with murine 9-8F2-B11 (setting [2]); 1.7 Abs (405 nm) in the experiment with murine 9-8F2-B11 (setting [3]); 2.1 Abs (405 nm) in the experiment with murine 9-8F2-B11 (setting [4]). Moreover, the response in the experiment with murine 9-8F2-B11 (read off a plot) was 2.2 Abs (405 nm).
